A mixed list of measured activities; the numbers were collected in NIAID ChemDB.

Shared fields: enzyme or target tests

a–b is a range or a potency band. Neighbouring rows are from separate reports. An empty or dashed field is not shown. ICn: concentration for n% inhibition. Percent inhibition refers to the dose given; in toxicity tests it is the harm to the cells.

| compound | species | strain | changes | protein | read by | measure | dose | value |
|---|---|---|---|---|---|---|---|---|
| O=C(Nc1nnc(NCC(c2ccccc2)c2ccccc2)s1)c1cc(F)cc(F)c1 | Human cytomegalovirus | - | - | Polymerase | - | IC50 | - | >25 µM |
| Nc1nc(N)c2nc(CC3CCCCC3)c(CC3CCCCC3)nc2n1 | Pneumocystis carinii | - | - | DHFR | - | IC50 | - | 2.6 µM |
| COc1cc(NCc2cccc3nc(N)nc(N)c23)c(Br)c(OC)c1OC | Cryptosporidium parvum | TYPE 1 | - | Dihydrofolate reductase | - | IC50 | - | >10 µM |
| O=C(CSc1nnnn1-c1ccc(C2CC2)cc1Cl)Nc1ccc(S(=O)(=O)Nc2ccncc2)cc1Cl | HIV-1 | WT | - | Reverse transcriptase | PicoGreen / fluorescence | IC50 | - | <1 µM |
| CCOc1ccc2ccccc2c1C(=O)Nc1nnc(NCc2ccc(Cl)c(Cl)c2)s1 | Human cytomegalovirus | - | - | Polymerase | - | IC50 | - | >25 µM |
| Cc1ccc(-n2nccc2OCC(=O)Nc2ccc(-c3ccc(CC(=O)O)cc3)cc2Cl)c(Cl)c1 | HIV-1 | WT | - | Reverse transcriptase | PicoGreen / fluorescence | IC50 | - | <1 µM |
| c1ccc2c(-c3cncc(N4CCN(c5cnccn5)CC4)n3)cccc2c1 | Cytomegalovirus | - | - | UL97 kinase | - | inhibition | 10 µM | >15% |
| O=C(CCCCCl)Nc1nnc(NCC(c2ccccc2)c2ccccc2)s1 | Human cytomegalovirus | - | - | Polymerase | - | IC50 | - | >25 µM |
| COc1cc(N(C)Cc2ccc3nc(N)nc(N)c3n2)cc(OC)c1OC | Cryptosporidium parvum | TYPE 2 | - | Dihydrofolate reductase | - | IC50 | - | 0.075 µM |
| CC(C)(C#Cc1ccc(NC(=O)CSc2nnnn2-c2ccc(C3CC3)cc2Cl)c(Cl)c1)NC(=O)CC(=O)O | HIV-1 | - | RT-K103 Y181C | Reverse transcriptase | PicoGreen / fluorescence | IC50 | - | <1 µM |
| COc1cc(CCCN2CCc3nc(N)nc(N)c3C2)cc(OC)c1OC | Cryptosporidium parvum | TYPE 1 | - | Dihydrofolate reductase | - | IC50 | - | >10 µM |
| CCCCCCCCCCCNc1nnc(NC(=O)/C=C/c2ccccc2)s1 | Human cytomegalovirus | - | - | Polymerase | - | IC50 | - | >25 µM |
| CC1(C)N=C(N)N=C(N)N1c1ccc(-c2ccc3c(Cl)cc(Cl)cc3c2)cc1 | Pneumocystis carinii | - | - | DHFR | - | IC50 | - | 0.84 µM |
| Cc1ccc(-n2nnnc2SCC(=O)Nc2ccc(-c3ccc(CC(=O)O)cc3)cc2[N+](=O)[O-])c(Cl)c1 | HIV-1 | - | RT-K103 Y181C | Reverse transcriptase | PicoGreen / fluorescence | IC50 | - | <1 µM |
| O=C(Nc1nnc(NCCc2ccccc2)s1)c1cc(F)cc(F)c1 | Human cytomegalovirus | - | - | Polymerase | - | IC50 | - | >25 µM |
| NNC(=O)c1ccncc1 | Mycobacterium tuberculosis | H37RV (INH 10 ug/mL-R) | - | Alpha-ketoglutarate dehydrogenase | - | inhibition | 1000 µM | 0% |
| O=C(Nc1nnc(NCCC(c2ccccc2)c2ccccc2)s1)c1ccc([N+](=O)[O-])o1 | Human cytomegalovirus | - | - | Polymerase | - | IC50 | - | >25 µM |
| CC(C)(C#Cc1ccc(NC(=O)CSc2nnnn2-c2cc(C(F)(F)F)cc(C3CC3)c2Cl)c(Cl)c1)OCCN1CCC(F)(F)C1 | HIV-1 | - | RT-K103 Y181C | Reverse transcriptase | PicoGreen / fluorescence | IC50 | - | <1 µM |
| O=C(CCCCCl)Nc1nnc(NCCc2ccccc2)s1 | Human cytomegalovirus | - | - | Polymerase | - | IC50 | - | >25 µM |
| COc1cc(CN(C)c2ccc3nc(N)nc(N)c3c2Cl)cc(OC)c1OC | Cryptosporidium parvum | TYPE 2 | - | Dihydrofolate reductase | - | IC50 | - | 0.038 µM |
| COc1ccc(N2C(N)=NC(N)=NC2(C)C)c(OC)c1OC | Toxoplasma gondii | - | - | DHFR | - | IC50 | - | 1.2 µM |
| CC(C)(C)c1ccc(-n2nnnc2SCC(=O)Nc2ccc(NS(=O)(=O)c3ccccc3)cc2Cl)c(Cl)c1 | HIV-1 | WT | - | Reverse transcriptase | PicoGreen / fluorescence | IC50 | - | <1 µM |
| COc1ccccc1CC1CCc2nc(N)nc(N)c2C1 | Cryptosporidium parvum | TYPE 2 | - | Dihydrofolate reductase | - | IC50 | - | 0.18 µM |
| CC(C)(C#Cc1ccc(NC(=O)CSc2nnnn2-c2cc(C(C)(C)C)ccc2Cl)c(Cl)c1)NC(=O)CN1CCNCC1 | HIV-1 | WT | - | Reverse transcriptase | PicoGreen / fluorescence | IC50 | - | <1 µM |
| Fc1cccc(C2CN(c3ccccn3)CCN2c2cnccn2)c1 | Cytomegalovirus | - | - | UL97 kinase | - | IC50 | - | <100 µM |
| Nc1nc(N)c2c(Cl)c(Cl)ccc2n1 | Pneumocystis carinii | - | - | DHFR | - | IC50 | - | 9.7 µM |
| CC(CC(=O)O)NC(=O)c1ccc(NC(=O)CSc2nnnn2-c2ccc(C(C)(C)C)cc2Cl)c(Cl)c1 | HIV-1 | - | RT-K103 Y181C | Reverse transcriptase | PicoGreen / fluorescence | IC50 | - | <1 µM |
| COc1ccc(-c2cncc(N3CCN(c4ccc(F)cc4)CC3)n2)cc1OC | Cytomegalovirus | - | - | UL97 kinase | - | inhibition | 1 µM | <50% |
| CN1CCN(C(=O)NC(C)(C)C#Cc2ccc(NC(=O)CSc3nnnn3-c3ccc(C4CC4)cc3Cl)c(Cl)c2)CC1 | HIV-1 | WT | - | Reverse transcriptase | PicoGreen / fluorescence | IC50 | - | <1 µM |
| CCOc1ccc(-c2cncc(N3CCN(c4ccc(F)cc4)CC3)n2)cc1 | Cytomegalovirus | - | - | UL97 kinase | - | IC50 | - | <100 µM |
| CC(=O)CC1(O)c2c3[nH]c4ccccc4c3cc[n+]2C2C=CC=CC21 | - | - | - | p56lck tyrosine kinase | ELISA | IC50 | - | <300 µM |
| CNC(=O)c1cn2c(c(O)c1=O)C(=O)N(Cc1ccc(F)c(Cl)c1)CC2 | HIV-1 | - | - | Integrase | ELISA | IC50 | - | 0.01–0.1 µM |
| CNCCOC(=O)COC(C)(C)C#Cc1ccc(NC(=O)CSc2nnnn2-c2ccc(C(C)(C)C)cc2Cl)c(Cl)c1 | HIV-1 | - | RT-K103 Y181C | Reverse transcriptase | PicoGreen / fluorescence | IC50 | - | <1 µM |
| N#Cc1ccc(-c2cncc(N3CCN(c4ccncc4)CC3)n2)cc1 | Cytomegalovirus | - | - | UL97 kinase | - | inhibition | 1 µM | <50% |
| CC1(C)N=C(N)N=C(N)N1c1ccc(-c2ccc3c(Cl)c(Cl)ccc3c2)cc1 | Pneumocystis carinii | - | - | DHFR | - | IC50 | - | 3 µM |
| O=C1c2c(O)c(=O)ccn2CCN1Cc1cc(Cl)cc(Cl)c1 | HIV-1 | - | - | Integrase | ELISA | IC50 | - | 0.01–0.1 µM |
| CC(C)(C)c1ccc(-n2nnnc2SCC(=O)Nc2ccc(OCC(=O)NCCC(=O)O)cc2Cl)c(Cl)c1 | HIV-1 | WT | - | Reverse transcriptase | PicoGreen / fluorescence | IC50 | - | <1 µM |
| c1ccc(-c2cncc(N3CCN(c4ccccn4)CC3)n2)cc1 | Cytomegalovirus | - | - | UL97 kinase | - | IC50 | - | <10 µM |
| O=C(CSc1nnnn1-c1ccc(C2CC2)cc1Cl)Nc1ccc(C(=O)NCc2cccc[n+]2[O-])cc1Cl | HIV-1 | - | RT-K103 Y181C | Reverse transcriptase | PicoGreen / fluorescence | IC50 | - | <1 µM |
| Clc1cc(CN2CCCNCCNCCCNCC2)cc(Cl)n1 | - | - | CXCR4-D193N | CXCR4 | - | IC50 | - | 0.34 µM |
| CC(C)(C#Cc1ccc(NC(=O)CSc2nnnn2-c2ccc(C3CC3)cc2Cl)c(Cl)c1)NCc1cnc[nH]1 | HIV-1 | - | RT-K103 Y181C | Reverse transcriptase | PicoGreen / fluorescence | IC50 | - | <1 µM |
| CC1(C)N=C(N)N=C(N)N1c1ccc(CN2C(N)=NC(N)NC2(C)C)cc1 | Pneumocystis carinii | - | - | DHFR | - | IC50 | - | 2 µM |
| CC(C)(C)c1ccc(-n2nnnc2SCC(=O)Nc2ccc(NC(=O)c3cccc(C(=O)O)c3)cc2Cl)c(Cl)c1 | HIV-1 | WT | - | Reverse transcriptase | PicoGreen / fluorescence | IC50 | - | <1 µM |
| CN(C)C(=O)c1cn2c(c(O)c1=O)C(=O)N(Cc1cccc(Cl)c1)CC2 | HIV-1 | - | - | Integrase | ELISA | IC50 | - | 0.01–0.1 µM |
| C#Cc1ccc(NC(=O)CSc2nnnn2-c2ccc(C(C)(C)C)cc2Cl)c(Cl)c1 | HIV-1 | - | RT-K103 Y181C | Reverse transcriptase | PicoGreen / fluorescence | IC50 | - | <1 µM |
| CCOc1ccccc1-c1cncc(N2CCN(c3ccc(C)cc3)CC2)n1 | Cytomegalovirus | - | - | UL97 kinase | - | inhibition | 10 µM | >15% |
| COC(=O)C1CCN(CCOc2ccc(NC(=O)CSc3nnnn3-c3ccc(C(C)(C)C)cc3Cl)c(Cl)c2)CC1 | HIV-1 | - | RT-K103 Y181C | Reverse transcriptase | PicoGreen / fluorescence | IC50 | - | <1 µM |
| CC(=O)CNC(=O)c1cn2ccn(Cc3cccc(Cl)c3)c(=O)c2c(O)c1=O | HIV-1 | - | - | Integrase | ELISA | IC50 | - | 0.01–0.1 µM |